Source: patent US20150175975A1

Columns and labels:
[1] = target: EILV/EEEV chimera (Eastern equine encephalitis virus) (UniProt P08768); assay: ELISA on coated EILV/EEEV chimera 1:100; background control, dilution 1:5,000
[2] = target: EILV/EEEV chimera (Eastern equine encephalitis virus) (UniProt P08768); assay: ELISA on coated EILV/EEEV chimera 1:1,000; background control, dilution 1:5,000
[3] = target: EILV/EEEV chimera (Eastern equine encephalitis virus) (UniProt P08768); assay: ELISA on coated EILV/EEEV chimera 1:1,000; background control, dilution 1:10,000

For “biotin-SP-Affinipure Goat anti-Mouse IgG (Jackson Labs Cat#: 115-065-164) (antibody)”, the O.D. (450 nm) (O.D. (450 nm)) [1] was 0.07, the O.D. (450 nm) (O.D. (450 nm)) [2] was 0.06 and the O.D. (450 nm) (O.D. (450 nm)) [3] was 0.06.
In the case of “streptavidin-horseradish peroxidase conjugate (Roche Immunochemical) (from UniProt P22629 37-163)”, the O.D. (450 nm) (O.D. (450 nm)) [1] is reported as 0.06, the O.D. (450 nm) (O.D. (450 nm)) [2] is reported as 0.06 and the O.D. (450 nm) (O.D. (450 nm)) [3] is reported as 0.06.
